Chains of the proteins cited; added tags and fusions are not shown. Residues count along the entry.
UniProt Q7DD37, 25-488: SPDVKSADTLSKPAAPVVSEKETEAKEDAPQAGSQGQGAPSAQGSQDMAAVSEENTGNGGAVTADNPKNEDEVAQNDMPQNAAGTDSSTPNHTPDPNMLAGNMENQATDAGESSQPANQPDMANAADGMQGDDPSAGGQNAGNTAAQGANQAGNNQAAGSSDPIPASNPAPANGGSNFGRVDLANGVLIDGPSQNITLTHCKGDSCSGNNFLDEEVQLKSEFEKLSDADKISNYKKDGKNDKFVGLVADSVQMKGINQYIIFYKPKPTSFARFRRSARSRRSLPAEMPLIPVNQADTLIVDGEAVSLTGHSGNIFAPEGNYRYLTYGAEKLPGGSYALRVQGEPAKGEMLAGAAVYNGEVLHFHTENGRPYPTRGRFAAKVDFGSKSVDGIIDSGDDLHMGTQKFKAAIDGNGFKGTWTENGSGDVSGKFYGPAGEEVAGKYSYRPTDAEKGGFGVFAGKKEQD

In article PMC5916922, “The Bexsero Neisseria meningitidis serogroup B vaccine antigen NHBA is a high-affinity chondroitin sulfate binding protein” (Scientific Reports, 2018):

Biological target: NHBA (Neisseria Heparin Binding Antigen), recombinant (Neisseria meningitidis MC58 (serogroup B)) (UniProt Q7DD37)
Experiment: SPR
Settings: NHBA immobilized by amine coupling on CM5, DNA as analyte, saturation not reached, not 1:1; SPR: Biacore T200, CM5 chip, 1:5 dilution series 1 nM-100 uM, single cycle kinetics; recombinant protein; residues 25-488; probe letters rebuilt from the primers and the genome

GAAGCCTGAATGCCTTTCCAGCCGCCGATAGACGAACCGTCAAACGCCTGACCGTTTTCGAACCACTCTTCGGGGTCTTCCAACACGATGCGCGCAGGCACGGTAAAGTGGTGCTGCTTGCCTTTGGTATCGGTAAAGCGCAAATCGACAAAGCGGGCTTCGCTTTCTTCAATCAATTTTACGGCGTTTTTAATAGACATTTTTCAGCTCCTGGAAAAGGGAAATAGCAAAATATGCGGAACGCGGCGGCTTGACGCAAAGTCGGCACGATTTTACCACGCCGATGCCGTCTGAAACCGGTTTTGCGTCAAATTTCAAGCCGGAAAATATAGTTTCAGACGGCAAGATTGTCAACAATGCGGACAAGCCGGCGCACCGCATCCGGATTTTTCCCGACCGATACAGGAAACGATGCCGTCTGAAGGCGGTTTCAGACGGCATCGTTTCCATCTGTACGCCGCCGTTATAAAATAGCCTTCCCGTCTTTTGGAACACGACC (double strand) [503 bp PCR fragment of N. meningitidis genomic DNA]
Kd: 71 nM
